A mixed list of measured activities; the numbers were collected in NIAID ChemDB.

Common to all: target-level tests; species: Hepatitis C virus; protein: NS3/NS4A protease; read-out: IC50

An empty or dashed field is not shown. ICn: concentration for n% inhibition. Lines come from different laboratories, so protocols vary. Two numbers with a dash give a range or band.

O=C(Nc1ccc(Oc2ccc(Cl)c3ccccc23)c(Cl)c1)c1cc(Cl)ccc1CS(=O)(=O)c1ccc(Cl)cc1 ; result: 6.5 µM
C=CC1CC1(NC(=O)[C@@H]1C[C@@H](OC(=O)Nc2ccccc2-n2nccn2)CN1C(=O)[C@@H](NC(=O)OC(C)(C)C)C(C)(C)C)C(=O)NS(=O)(=O)C1CC1 ; strain: BMS/H77C/J416S ; result: <0.1 µM
C=CC1CC1(NC(=O)C1C[C@@H](Oc2cc(-c3ccccc3)nc3cc(OC)ccc23)CN1C(=O)C(NC(=O)OC(C)(C)C)C(C)(C)C)C(=O)OCC ; strain: H77C ; result: 0.01 µM
C=C[C@@H]1C[C@]1(NC(=O)C1C[C@@H](Oc2cc(-c3csc(NC4CCCCC4)n3)nc3cc(OC)ccc23)CN1C(=O)[C@@H](NC(=O)OC1CCCC1)C(C)(C)C)C(=O)O ; result: <0.1 µM
C=CC1CC1(NC(=O)[C@@H]1C[C@@H](OC(=O)Nc2cc(C(F)(F)F)ccc2-n2cccn2)CN1C(=O)[C@@H](NC(=O)OC(C)(C)C)C(C)(C)C)C(=O)NS(=O)(=O)C1CC1 ; strain: BMS/H77C/J416S ; result: <0.1 µM
C=C[C@@H]1C[C@]1(NC(=O)[C@@H]1C[C@@H](Oc2cc(-c3ccccc3)nc3cc(OC)ccc23)CN1C(=O)[C@@H](NC(=O)OC(C)(C)C)C1CCCC1)C(=O)NS(=O)(=O)C1CCC1 ; strain: BMS ; result: <0.5 µM
C=CC1CC1(NC(=O)[C@@H]1C[C@@H](OC(=O)Nc2cc(C)ccc2F)CN1C(=O)[C@@H](NC(=O)OC(C)(C)C)C(C)(C)C)C(=O)NS(=O)(=O)C1CC1 ; strain: BMS/H77C/J416S ; result: <0.1 µM
C=C(C)CC[C@H](CC(=C)[C@H](CC(=C)C)CC(=C)CCC(=O)O)C(=C)C[C@@H](Cc1ccccc1C)C(=C)C[C@H](C(=C)C[C@@H](CC(C)C)C(=C)C[C@@H](CCCC)C(=C)C(=C)C)C(C)(C)C ; result: 0.011 µM
C=CC1C[C@]1(NC(=O)[C@@H]1C[C@@H](Oc2cc(-c3ccccc3)nc3cc(OC)ccc23)CN1C(=O)[C@@H](NC(=O)OC(C)(C)C)C(C)(C)C)C(=O)NS(=O)(=O)c1nc(NC(C)=O)sc1C ; strain: BMS ; result: <0.1 µM
CCCC[C@@H](C=O)NC(=O)[C@H](CC(C)C)NC(=O)[C@@H](NC(=O)[C@H](Cc1ccccc1C)NC(=O)[C@H](CCC(=O)O)NC(=O)[C@H](CC(=O)O)NC(=O)CCC(=O)O)C(C)(C)C ; result: 0.065 µM
C=CC1CC1(NC(=O)[C@@H]1C[C@@H](OC(=O)Nc2ccccc2C(=O)OCC)CN1C(=O)[C@@H](NC(=O)OC(C)(C)C)C(C)(C)C)C(=O)NS(=O)(=O)C1CC1 ; strain: BMS/H77C/J416S ; result: <0.1 µM
CC[C@@H](C=O)NC(=O)[C@H](CC(C)C)NC(=O)[C@@H](NC(=O)[C@H](Cc1ccccc1C)NC(=O)[C@H](CCC(=O)O)NC(=O)[C@H](CC(=O)O)NC(=O)CCC(=O)O)C(C)(C)C ; result: 0.54 µM
COc1cc(O[C@@H]2C[C@@H](C(=O)NC3(C(=O)NS(=O)(=O)C4CC4)CC34CCC4)N(C(=O)[C@@H](NC(=O)OC(C)(C)C)C(C)(C)C)C2)c2ccc(-c3ccccc3)cc2n1 ; strain: BMS ; result: <0.5 µM
C=C[C@H]1C[C@@]1(NC(=O)[C@@H]1C[C@@H](Oc2cc(C3CC3)nc3cc(Cl)ccc23)CN1C(=O)[C@@H](NC(=O)OC(C)(C)C)C(C)(C)C)C(=O)OCC ; strain: BMS ; result: <0.05 µM
Cc1ccccc1C[C@H](NC(=O)[C@H](CCC(=O)O)NC(=O)[C@H](CC(=O)O)NC(=O)CCC(=O)O)C(=O)N[C@H](C(=O)N[C@@H](CC(C)C)C(=O)N[C@H](C=O)CSCCCc1ccccc1)C(C)(C)C ; result: 0.3 µM
C=CC1CC1(NC(=O)[C@@H]1C[C@@H](OC(=O)Nc2ccccc2C(C)(C)C)CN1C(=O)[C@@H](NC(=O)OC(C)(C)C)C(C)(C)C)C(=O)NS(=O)(=O)C1CC1 ; strain: BMS/H77C/J416S ; result: 0.1–1 µM
C=C[C@@H]1C[C@]1(NC(=O)[C@@H]1C[C@@H](Oc2cc(-c3ccccc3)nc3cc(OC)ccc23)CN1C(=O)[C@@H](NC(=O)OC(C)(C)C)[C@@H](C)CC)C(=O)NS(=O)(=O)C1CC1 ; strain: BMS ; result: <0.5 µM
C=CC1CC1(NC(=O)[C@@H]1C[C@@H](Oc2cc(-c3ccccc3)nc3cc(OC)ccc23)CN1C(=O)[C@@H](NC(=O)OC(C)(C)C)C(C)(C)C)C(=O)NS(=O)(=O)C1(C(=O)Nc2c(C)noc2C)CC1 ; strain: BMS ; result: <0.05 µM
C=CC1CC1(NC(=O)[C@@H]1C[C@@H](OC(=O)N[C@H]2C[C@@H]2c2ccccc2)CN1C(=O)[C@@H](NC(=O)OC(C)(C)C)C(C)(C)C)C(=O)NS(=O)(=O)C1CC1 ; strain: BMS/H77C/J416S ; result: <0.1 µM
COc1ccc2c(O[C@@H]3C[C@@H](C(=O)NC4(C(=O)NS(=O)(=O)C5CC5)CC45CCCC5)N(C(=O)[C@@H](NC(=O)OC(C)(C)C)C(C)(C)C)C3)cc(-c3ccccc3)nc2c1 ; strain: BMS ; result: <5 µM
Cc1ccccc1C[C@H](NC(=O)[C@H](CCC(=O)O)NC(=O)[C@H](CC(=O)O)NC(=O)CCC(=O)O)C(=O)N[C@H](C(=O)N[C@@H](CC(C)C)C(=O)N[C@H](C=O)CSCc1ccccc1)C(C)(C)C ; result: 0.3 µM
C=CC1C[C@@]1(NC(=O)[C@@H]1C[C@@H](Oc2cc(-c3ccccc3)nc3cc(OC)ccc23)CN1C(=O)[C@@H](NC(=O)N(C)C(C)(C)C)C(C)(C)C)C(=O)NS(=O)(=O)C1(CC2CC2)CC1 ; strain: BMS ; result: <0.05 µM
CSC[C@@H](C=O)NC(=O)[C@H](CC(C)C)NC(=O)[C@@H](NC(=O)[C@H](Cc1ccccc1C)NC(=O)[C@H](CCC(=O)O)NC(=O)[C@H](CC(=O)O)NC(=O)CCC(=O)O)C(C)(C)C ; result: 0.165 µM
C=CC1C[C@]1(NC(=O)[C@@H]1C[C@@H](Oc2cc(-c3ccccc3)nc3cc(OC)ccc23)CN1C(=O)[C@@H](NC(=O)OC(C)(C)C)C(C)(C)C)C(=O)NS(=O)(=O)c1ccc(Br)s1 ; strain: BMS ; result: <0.1 µM
C=CC1CC1(NC(=O)[C@@H]1C[C@@H](OC(=O)Nc2cc(OC)ccc2-n2cccn2)CN1C(=O)[C@@H](NC(=O)OC(C)(C)C)C(C)(C)C)C(=O)NS(=O)(=O)C1CC1 ; strain: BMS/H77C/J416S ; result: <0.1 µM
C=CC1C[C@]1(NC(=O)[C@@H]1C[C@@H](Oc2cc(-c3ccccc3)nc3cc(OC)ccc23)CN1C(=O)[C@@H](NC(=O)OC(C)(C)C)C(C)(C)C)C(=O)NS(=O)(=O)c1cccs1 ; strain: BMS ; result: <0.1 µM
C=C[C@@H]1C[C@]1(NC(=O)[C@@H]1C[C@@H](Oc2cc(-c3ccccc3)nc3cc(OC)ccc23)CN1C(=O)[C@@H](NS(=O)(=O)c1ccc(F)cc1)C(C)(C)C)C(=O)NS(=O)(=O)C1CC1 ; strain: BMS ; result: <0.05 µM
C=C[C@H]1C[C@@]1(NC(=O)[C@@H]1C[C@@H](Oc2ccnc3cc(Cl)ccc23)CN1C(=O)[C@@H](NC(=O)OC1CCCC1)C(C)(C)C)C(=O)NS(=O)(=O)C1(CCCC)CC1 ; strain: BMS ; result: <0.05 µM
C=C[C@@H]1C[C@]1(NC(=O)[C@@H]1C[C@@H](Oc2cc(-c3ccccc3)nc3cc(OC)ccc23)CN1C(=O)[C@@H](NC(=O)OC(C)(C)C)C(C)C)C(=O)NS(=O)(=O)CC1CC1 ; strain: BMS ; result: <0.5 µM
C#CC[C@@H](C=O)C(=O)[C@H](CCC(=O)O)NC(=O)[C@@H](CCC(=O)O)NC(=O)[C@H](Cc1ccc(Cl)cc1)NC(=O)[C@H](CCC(=O)O)NC(=O)[C@H](CC(=O)O)NC(=O)CCC(=O)O ; result: 13 µM
C=CCC1(S(=O)(=O)NC(=O)[C@]2(NC(=O)[C@@H]3C[C@@H](Oc4ccnc5cc(Cl)ccc45)CN3C(=O)[C@@H](NC(=O)OC3CCCC3)C(C)(C)C)C[C@@H]2C=C)CC1 ; strain: BMS ; result: 0.05–0.5 µM
C=CC1C[C@]1(NC(=O)[C@@H]1C[C@@H](Oc2cc(-c3ccccc3)nc3cc(OC)ccc23)CN1C(=O)[C@@H](NC(=O)OC(C)(C)C)C(C)(C)C)C(=O)NS(=O)(=O)c1cc(Cl)c(Br)s1 ; strain: BMS ; result: <0.1 µM
C=C[C@@H]1C[C@]1(NC(=O)C1C[C@@H](Oc2cc(-c3csc(NC4CCCC4)n3)nc3cc(OC)ccc23)CN1C(=O)[C@@H](NC(=O)OC1CCCCC1)C(C)(C)C)C(=O)O ; result: <0.1 µM
C=CC1CC1(NC(=O)[C@@H]1C[C@@H](OC(=O)Nc2c(F)cccc2F)CN1C(=O)[C@@H](NC(=O)OC(C)(C)C)C(C)(C)C)C(=O)NS(=O)(=O)C1CC1 ; strain: BMS/H77C/J416S ; result: 0.1–1 µM
C=CC1C[C@@]1(NC(=O)[C@@H]1C[C@@H](Oc2cc(-c3ccccn3)nc3cc(OC)ccc23)CN1C(=O)[C@@H](NC(=O)OC(C)(C)C)C(C)(C)C)C(=O)NS(=O)(=O)C1(Cc2ccccc2)CC1 ; strain: BMS ; result: <0.05 µM
CC[C@H](C)[C@@H](NC(=O)[C@H](CCSC)NC(=O)[C@H](CCC(=O)O)NC(=O)[C@H](CC(=O)O)NC(=O)CCC(=O)O)C(=O)N[C@@H](CCC(=O)O)C(=O)N[C@H](C=O)CC(F)(F)F ; result: 3 µM
C=CC1C[C@]1(NC(=O)[C@@H]1C[C@@H](Oc2cc(-c3ccccc3)nc3cc(OC)ccc23)CN1C(=O)[C@@H](NC(=O)OC(C)(C)C)C(C)(C)C)C(=O)NS(=O)(=O)c1cc(Br)c(Cl)s1 ; strain: BMS ; result: <0.1 µM
C=C[C@H]1C[C@@]1(NC(=O)[C@@H]1C[C@@H](Oc2ccnc3cc(Cl)ccc23)CN1C(=O)[C@@H](NC(=O)OC1CCCC1)C(C)(C)C)C(=O)NS(=O)(=O)C1(CC#CCC)CC1 ; strain: BMS ; result: <0.05 µM

Again, the opening 3 rows:

compound,strain,result
O=C(Nc1ccc(Oc2ccc(Cl)c3ccccc23)c(Cl)c1)c1cc(Cl)ccc1CS(=O)(=O)c1ccc(Cl)cc1,,6.5 µM
C=CC1CC1(NC(=O)[C@@H]1C[C@@H](OC(=O)Nc2ccccc2-n2nccn2)CN1C(=O)[C@@H](NC(=O)OC(C)(C)C)C(C)(C)C)C(=O)NS(=O)(=O)C1CC1,BMS/H77C/J416S,<0.1 µM
C=CC1CC1(NC(=O)C1C[C@@H](Oc2cc(-c3ccccc3)nc3cc(OC)ccc23)CN1C(=O)C(NC(=O)OC(C)(C)C)C(C)(C)C)C(=O)OCC,H77C,0.01 µM